Assays:
Experiment in all cases: purified protein
Settings in all cases: 50 mM CHES pH 9.5, 10 mM DTT, 37 °C
[1] = tested on: CCOC(=O)[C@H](CCCNC(=N)N)NC(=O)c1ccccc1
N=C(N)NCCCCN = tested on: N=C(N)NCCCCN
[2] = tested on: N=C(N)NCCC[C@@H](N)C(=O)O
[3] = tested on: N=C(N)NCCC[C@H](N)C(=O)NO
N=C(N)NCCC[C@H](N)C(=O)O = tested on: N=C(N)NCCC[C@H](N)C(=O)O

truncated PAD (peptidylarginine deiminase, 43-amino acid N-terminal deletion) (Porphyromonas gingivalis W83)
kcat [1]: 0.019 s⁻¹
Km (N=C(N)NCCCCN): (31 ± 1)×10^3 µM
kcat (N=C(N)NCCCCN): 0.007 s⁻¹
kcat/Km (N=C(N)NCCCCN): 0.23 M⁻¹ s⁻¹
Km [2]: (1.9 ± 0.5)×10^3 µM
kcat [2]: 0.058 s⁻¹
kcat/Km [2]: 31 M⁻¹ s⁻¹
kcat/Km [3]: 22 M⁻¹ s⁻¹
Km (N=C(N)NCCC[C@H](N)C(=O)O): (1.2 ± 0.5)×10^3 µM
kcat (N=C(N)NCCC[C@H](N)C(=O)O): 0.22 s⁻¹
kcat/Km (N=C(N)NCCC[C@H](N)C(=O)O): 190 M⁻¹ s⁻¹

— article PMC2752837
